The values are deposited in ChEMBL (CHEMBL3988442, “University of Dundee, Small-Polar-MMV Screening Library” (2021)).

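Growth of Mycobacterium tuberculosis over 3 days (7H9 medium with glucose and tyloxapol); the read-out is not stated. Compounds at 500 µM. Direction is inferred from retests: higher values go with more growth inhibition. Size under these conditions: about 18,000 compounds, about 1,400 of them at 50% or above in at least one test.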

Each number is a percent effect as filed. How 0% and 100% were set is not recorded. Most values in the screen are low, and negative values occur. Many other results are left out here, so strong results are more common than in the screen.

SMILES	percent effect
Cc1cc(N)n(CC(=O)NCC2CCCOC2)n1 (stereo not drawn)	1.604%
CC1c2ccsc2CCN1CCC(=O)N(C)C (stereo not drawn)	43.36%
CN1C(=O)C[C@@H](C(N)=O)[C@@H]1c1cccc(Cl)c1	-0.8025%
Cc1nnsc1C(=O)Nc1ccncc1	12.91%
OC1CCCNCC1 (stereo not drawn)	7.762%
CCCC1SCCN1C(=O)c1cnc2n[nH]c(C)c2c1 (stereo not drawn)	13.68%
CCc1ccc(C(=O)NCc2ccccn2)o1	61.69%
Cc1cc(N2CCS(=O)(=O)CC2)nc2ccccc12	-2.51%
Cc1cc(S(=O)(=O)NC(CN)C2CC2)c(F)cc1F (stereo not drawn)	55.27%
CCC(NC(=O)NCCCOC)C(C)C (stereo not drawn)	57.8%
CNC(=O)c1c(C)nn(-c2ccc(F)cc2)c1Cl	12.25%
CN(C)CCOC1CCCNC1 (stereo not drawn)	-6.304%
Cc1nnc(SCCCNC(=O)c2cnccc2C)s1	28.71%
COc1cccc(SCC(=O)N[C@@H]2CC[C@@H](N)C2)c1	36.67%
c1snnc1CN1CCOCC2(CCOCC2)C1	4.781%
COCCNC(=O)c1cn(-c2cccc(Br)c2)nn1	12.98%
CN(Cc1ccc2c(c1)OCO2)S(=O)(=O)c1cccs1	32.9%
CC(C)C(=O)NC(C)c1ccc2c(c1)OCCO2 (stereo not drawn)	19.89%
CSc1ccc(CC(=O)N(C)Cc2ccon2)cc1	55.94%
CCCn1nnnc1NCc1ccsc1	66.88%
CCC(NC(=O)CCn1cncn1)c1nccs1 (stereo not drawn)	-12.48%
CCOC(=O)CCN(C)CCNC	-1.095%
Cn1ccnc1CN1CCN(Cc2ccncc2)CC1	0.7017%
O=C(NC1CCCOc2ccc(F)cc21)c1c[nH]nn1 (stereo not drawn)	27.71%
COc1ccc(CC(=O)N2CCN(C)CC2)c(OC)c1	11.95%
NCCCc1nc(-c2ccncc2)cs1	-0.2237%
CCNC(=O)c1cc2ccccc2n1C	39.45%
CCNCC1CCOC1 (stereo not drawn)	-3.174%
CC(C)(C)NC(=O)C1CCCC1	4.9%
O=C(CC1COCCN1)NCc1ccc2c(c1)OCO2 (stereo not drawn)	22.48%
CNC(=O)c1ccc(NS(=O)(=O)c2ccc(C)s2)cc1	42.3%
Cc1cc(C(=O)Nc2ccnn2C(C)C)on1	9.074%
CC[C@@H](N)c1ccc(F)cc1	13.06%
NCC1CSc2ccccc2O1 (stereo not drawn)	48.53%
CCOCCCC(=O)N(C)Cc1cnc(C)s1	-0.9036%
CNC(=O)c1cccc(NCc2ccc(C#N)s2)n1	68.75%
CN1CCCN(Cc2nc(C3CCOC3)no2)CC1 (stereo not drawn)	-2.574%
CCc1nccn1CCNC(=O)[C@H]1CCC[C@@H](O)C1	8.939%
COc1ccc(OC)c(NC(=O)CCN2CCCC2)c1	23.54%
CCN(CCO)Cc1cc(-c2cccs2)on1	50.04%
Cc1ccc(-c2noc(CNS(C)(=O)=O)n2)cc1	55.78%
c1snnc1CN1CCC(OCC2CCOC2)CC1 (stereo not drawn)	-9.996%
O=C(c1ccccn1)N1CCC2(CCCC2)CC1	68.87%
COc1ccc(-c2noc(C(C)n3ccnc3)n2)cn1 (stereo not drawn)	63.18%
COC1CCN(C(=O)Cc2ccc(N(C)C)cc2)C1 (stereo not drawn)	56.98%
CCOCCC(=O)N1C[C@@H](N)C[C@H]1C(=O)N(CC)CC	3.707%

For reference, 5 entries once more:

SMILES,percent effect
O=C(NC1CCCOc2ccc(F)cc21)c1c[nH]nn1 (stereo not drawn),27.71%
Cn1ccnc1CN1CCN(Cc2ccncc2)CC1,0.7017%
CNC(=O)c1c(C)nn(-c2ccc(F)cc2)c1Cl,12.25%
CC(C)C(=O)NC(C)c1ccc2c(c1)OCCO2 (stereo not drawn),19.89%
CCCC1SCCN1C(=O)c1cnc2n[nH]c(C)c2c1 (stereo not drawn),13.68%